The values that follow come from ChEMBL document CHEMBL1131003, “Nonsymmetric P2/P2' cyclic urea HIV protease inhibitors. Structure-activity relationship, bioavailability, and resistance profile of monoindazole-substituted P2 analogues” (J Med Chem, 1998).

In test [1] the target is Human immunodeficiency virus type 1 protease (Human immunodeficiency virus 1) (UniProt Q72874). In words: Antiviral activity against mutant virus HIV-1 mutant (84V) strain. Type of test: functional. The procedure, abridged:
(§1)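 I84V single and I84V/V82F double mutant HIV-1, both from in vitro selection under a cyclic urea inhibitor. IC90 measured by yield reduction assay.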

For test [2] the target is unchanged. The test is described as follows: Antiviral activity against mutant virus HIV-1 mutant (84V/82F) strain. Type of test: functional. The procedure, abridged: as §1

Consider `N=C(NO)c1cccc(CN2C(=O)N(Cc3cccc(/C(N)=N/O)c3)[C@H](CCc3ccccc3)[C@@H](O)[C@H]2Cc2ccccc2)c1`, for which the IC90 mutant/IC90 WT in test [1] is 1; in test [2] it was 0.4.
